# Experimental data: paper PMC4286435
# Assays:
# [1] = test system: CC(C)(COP(=O)(O)OP(=O)(O)OC[C@H]1O[C@@H](n2cnc3c(N)ncnc32)[C@H](O)[C@@H]1OP(=O)(O)O)[C@@H](O)C(=O)NCCC(=O)NCCS; test: purified protein; details: pH 8.1; 30.0 °C
# [2] = test system: C[C@H](C(=O)CC(=O)SCCNC(=O)CCNC(=O)[C@H](O)C(C)(C)COP(=O)(O)OP(=O)(O)OC[C@H]1O[C@@H](n2cnc3c(N)ncnc32)[C@H](O)[C@@H]1OP(=O)(O)O)[C@H]1CC[C@H]2[C@@H]3CCC4=CC(=O)CC[C@]4(C)[C@H]3CC[C@]12C; test: purified protein; details: pH 8.1; 30.0 °C
substance,measurement,setting,value
FadA5 (Mycobacterium tuberculosis H37Rv),Km,[1],3.10 ± 0.39 µM
same,Km,[2],11.8 ± 1.4 µM
same,kcat/Km,[2],61400 M⁻¹ s⁻¹
